Measured values from several laboratories, pooled; numbers as filed in NIAID ChemDB.

Common to all: whole-cell or culture tests; species: HIV-1

An empty or dashed field is not shown.

| SMILES | cells | changes | strain | read by | read-out | dose | setting | result |
|---|---|---|---|---|---|---|---|---|
| Cc1cn([C@H]2C[C@H](N=[N+]=[N-])[C@@H](COP(=O)(O)OC[C@H]3OC(O)[C@@H](O)[C@@H](O)[C@@H]3O)O2)c(=O)[nH]c1=O | CEM |  | LAV-Bru | RT activity | inhibition | 0.2 µM | 26 d | 0% |
| CCn1nc(Cc2ccc3c(c2)OCO3)cc1C1CCN(C[C@H]2CN([C@@H](C(=O)O)C(C)(C)C)C[C@@H]2c2cccc(F)c2)CC1 | HeLa |  | BaL | β-galactosidase | EC90 |  | 50% human serum | 0.033 µM |
| Cc1cn([C@H]2C[C@H](N=[N+]=[N-])[C@@H](CO)O2)c(=O)[nH]c1=O | PBMC | M184V | Clinical isolate | single cycle / fluorescence | EC50 |  |  | 0.00263 µM |
| CC[C@@H](C)[C@H](C(=O)O)N1C[C@H](CN2CCC(c3cc(Cc4ccc(OC(F)F)cc4)nn3CC)CC2)[C@@H](c2cccc(F)c2)C1 | HeLa |  | BaL | β-galactosidase | EC90 |  |  | <0.00014 µM |
| CC(C)(C)NC(=O)[C@@H]1C[C@@H]2CCCC[C@@H]2CN1C[C@@H](O)[C@H](Cc1ccccc1)NC(=O)[C@H](CC(N)=O)NC(=O)c1ccc2ccccc2n1 | MT-4 | PR-I84V | NL4-3 | p24 | EC95 |  |  | 0.05 µM |
| Cc1cn([C@H]2C=C[C@@H](CO)O2)c(=O)[nH]c1=O | HeLa | RT-V118I M184V | Recombinant | luciferase | fold resistance |  |  | 1.3 |
| Cc1cc(S(N)(=O)=O)ccc1NC(=O)COc1ccc(Cl)cc1C(=O)c1cc(Cl)cc(C#N)c1 | MAGI | RT-P236L | NNRTI-resistant (RT P236L) | β-galactosidase | EC50 |  |  | 0.0011 µM |
| CC(C)Nc1cccnc1N1CCN(C(=O)c2cc3cc(N=CN(C)C)ccc3[nH]2)CC1 | PBMC |  | Seropositive clinical isolate A | MTT | inhibition | 1 µM |  | 100% |
| Nc1nc(=O)n([C@@H]2CS[C@H](CO)O2)cc1F | Primary T lymphocytes | K65R |  | p24 / ELISA | EC90 |  |  | 2.4 µM |
| CCn1nc(Cc2ccccc2F)cc1C1CCN(C[C@H]2CN([C@@H](C(=O)O)C(C)C)C[C@@H]2c2cccc(F)c2)CC1 | HeLa |  | BaL | β-galactosidase | EC90 |  |  | 0.011 µM |
| N#CC[C@H](C1CCCC1)n1cc(-c2ncnc3[nH]ccc23)cn1 | Macrophage |  |  | p24 / ELISA | EC90 |  |  | 3.1 µM |
| CCn1nc(Cc2cc(C(F)(F)F)cc(C(F)(F)F)c2)cc1C1CCN(C[C@H]2CN([C@@H](C(=O)O)C(C)C)C[C@@H]2c2cccc(F)c2)CC1 | HeLa |  | BaL | β-galactosidase | EC90 |  |  | 0.1 µM |
| CC(C)=CCN1Cc2cccc3[nH]c(=S)n(c23)C[C@@H]1C | CEM + CEM-SS | RT-L100I | Dihydrocostatolide-resistant (RT-L100I) | XTT | fold resistance |  |  | 117 |
| Cc1cn([C@H]2C[C@H](N=[N+]=[N-])[C@@H](CO)O2)c(=O)[nH]c1=O | U-937 |  | LAV-Bru | RT activity | inhibition | 5 µM | 14 d | 0% |
| Cc1cn([C@H]2C[C@H](N=[N+]=[N-])[C@@H](CO)O2)c(=O)[nH]c1=O | CEM + CEM-SS | RT-K103N | UC10-resistant (RT K103N) | XTT | fold resistance |  |  | 0.06 |
| O=C1N(Cc2ccc(CO)cc2)[C@H](Cc2ccccc2)[C@H](O)[C@@H](O)[C@@H](Cc2ccccc2)N1Cc1ccc(CO)cc1 | MT-4 | PR-L10R M46I L63P V82T I84V | NL4-3 | p24 | EC95 |  |  | 3 µM |
| CC(C)c1nc(CN(C)C(=O)N[C@H](C(=O)N[C@@H](Cc2ccccc2)C[C@H](O)[C@H](Cc2ccccc2)NC(=O)OCc2cncs2)C(C)C)cs1 | MT-4 | PR-D30N M46I A71V | NL4-3 | p24 | EC90 |  |  | 0.04 µM |
| c1cc(CN2CCCNCCNCCCNCC2)ccc1CN1CCCNCCNCCCNCC1 | PBMC |  | 92RW026 CLADE A R5 | p24 | inhibition | 0.5 µM |  | 63% |
| Cc1cn([C@H]2C[C@H](N=[N+]=[N-])[C@@H](CO)O2)c(=O)[nH]c1=O | HeLa | RT-M41L D67N V118I M184V L210W T215Y | NRTI resistant | luciferase | fold resistance |  |  | 9.5 |
| CC[C@H](C)[C@H](C(=O)O)N1C[C@H](CN2CCC(c3cc(Cc4ccc(C)cc4)nn3CC)CC2)[C@@H](c2cccc(F)c2)C1 | HeLa |  | BaL | β-galactosidase | EC90 |  |  | <0.00014 µM |
| C[C@H](Cn1cnc2c(N)ncnc21)OCP(=O)(O)O | HeLa |  | NL4-3 WT | luciferase | EC50 |  |  | 0.5555 µM |
| O=C1N(Cc2ccc(CO)cc2)[C@H](Cc2ccccc2)[C@H](O)[C@@H](O)[C@@H](Cc2ccccc2)N1Cc1ccc(CO)cc1 | MT-2 |  | IIIB | virus yield | inhibition | 0.11 µM |  | 90% |
| Cc1ccnc2c1NC(=O)c1cccnc1N2C1CC1 | CEM + CEM-SS | RT-Y181C | Diphenyl sulfone-resistant (RT-Y181C) | XTT | fold resistance |  |  | 590 |
| CCn1nc(Cc2ccc(OC3CC3)cc2)cc1C1CCN(C[C@H]2CN([C@@H](C(=O)O)C(C)(C)C)C[C@@H]2c2cccc(F)c2)CC1 | HeLa |  | BaL | β-galactosidase | EC90 |  | 50% human serum | 0.033 µM |
| O=C(O)P(=O)(O)O | PBL |  | IIIB | RT activity | inhibition | 256 µM | 14 d | 100% |
| Cc1cn([C@H]2C[C@H](N=[N+]=[N-])[C@@H](CO)O2)c(=O)[nH]c1=O | Primary T lymphocytes | A62V V75I F77L F116Y Q151M |  | p24 / ELISA | EC90 |  |  | 41.2 µM |
| Cc1cn([C@H]2C[C@H](N=[N+]=[N-])[C@@H](COP(=O)(O)OC[C@H]3OC(O)[C@H](O)[C@@H](O)[C@@H]3O)O2)c(=O)[nH]c1=O | CEM |  | LAV-Bru | RT activity | inhibition | 25 µM | 22 d | 92% |
| CC(C)=CCOc1cc(NC(=S)c2ccoc2C)ccc1Cl | CEM + CEM-SS | RT-L100I T139I | Costatolide-resistant (RT L100I T139I) | XTT | fold resistance |  |  | 8 |
| Cc1ccnc2c1NC(=O)c1cccnc1N2C1CC1 | PBMC |  | TEKI | cytopathic effect / XTT | EC50 |  | clinical isolate | 0.1 µM |
| CCn1nc(Cc2ccc(OC(F)F)cc2)cc1C1CCN(C[C@H]2CN([C@@H](C(=O)O)C(C)(C)C)C[C@@H]2c2cccc(F)c2)CC1 | HeLa |  | BaL | β-galactosidase | EC90 |  | 50% human serum | 0.011 µM |
| Cc1ccnc2c1NC(=O)c1cccnc1N2C1CC1 | MT-4 | RT-K70R Y181C |  |  | EC95 |  |  | 3 µM |
| CC(C)=CCN1Cc2cc(Cl)cc3[nH]c(=S)n(c23)C[C@@H]1C | HT4 + HT4 LacZ-1 | RT-L74V Y181C T215Y | HIVRTMF (RT L74V Y181C) | plaque count | fold resistance |  |  | 22.7 |

For reference, 3 entries again:

SMILES,cells,changes,strain,read by,read-out,dose,setting,result
Cc1ccnc2c1NC(=O)c1cccnc1N2C1CC1,PBMC,,TEKI,cytopathic effect / XTT,EC50,,clinical isolate,0.1 µM
Cc1ccnc2c1NC(=O)c1cccnc1N2C1CC1,CEM + CEM-SS,RT-Y181C,Diphenyl sulfone-resistant (RT-Y181C),XTT,fold resistance,,,590
C[C@H](Cn1cnc2c(N)ncnc21)OCP(=O)(O)O,HeLa,,NL4-3 WT,luciferase,EC50,,,0.5555 µM

Inhibition is in % at the dose shown (toxicity tests: loss of growth or viability). ECn: concentration that inhibits the pathogen or its effect by n%. Fold resistance has wild type as its base. Conditions beyond the fields shown may differ between rows.